PubChem BioAssay AID624099 – ICCB-Longwood – 2012
Here is one part, drawn at random, of about 21,000 reagents tested. 497 of all reagents (2.4%) count as active. 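Higher z means weaker E2 silencing; only reporter increases were scored, and knock-downs that hurt cell survival may mask genuine repressor factors.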 A number with no mark means an inactive call.

- Aim: 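Host factors E2 relies on to silence an HPV18 LCR reporter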 (primary screen)
- System: human C33A cervical carcinoma cells (HPV-negative) stably expressing BPV1 E2 and an HPV18 LCR luciferase reporter
- Reagents: siRNA pool against human genes, 40 nM
- Timing: 72 h
- Detection: 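HPV18 LCR reporter light per well, converted to plate-wise z-scores that exclude control wells, and averaged over triplicate plates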
- Scale: mean z-score and z-score: higher = stronger reporter signal, weaker E2 silencing
- Call rule: 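Mean z ≥ 2 together with z ≥ 2 in two or more of the three replicates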

gene knocked down	mean z-score	z-score, replicate A	z-score, replicate B	z-score, replicate C
FKBP15	0.11	0.12	0.02	0.17
FOXJ3	-1.22	-0.88	-1.44	-1.34
PIK3R6	-0.03	-0.04	-0.07	0.02
ITIH6	0.48	0.43	0.63	0.39
ERO1B	-0.53	-0.42	-0.7	-0.46
ACOX2	-1.08	-1.11	-1.05	-1.08
C1orf105	-0.1	0.15	-0.26	-0.2
MAPK11	-0.51	-0.64	-0.44	-0.44
FMOD	-1.41	-0.85	-1.49	-1.88
SLC22A6	-0.01	0.03	0.08	-0.13
FTH1P7	-0.9	-1.05	-0.8	-0.86
FBXW4P1	-0.41	-0.19	-0.53	-0.5
GCSAM	0.07	0.17	0.15	-0.12
FANCL	-0.29	-0.29	-0.68	0.09
TPSB2	-0.25	-0.03	-0.63	-0.08
PTPRZ1	0.55	0.65	0.45	0.55
ANKS6	1.08	0.93	1.46	0.84
GARIN3	1.37	1.49	0.43	2.2
LOC389345 (retired record)	1.7	1.64	1.43	2.04
LOC387930 (retired record)	-2.33	-2.07	-2.54	-2.36
APOBEC3A	-0.21	0.05	-0.39	-0.27
ARHGAP44	0.72	0.82	0.93	0.41
TMPRSS11A	0.37	0.36	0.35	0.4
GUSBP4	1.13	0.89	1.53	0.96
PTCHD3P1	-1.43	-1.67	-1.48	-1.15
ZNF483	-0.88	-0.56	-1.02	-1.04
SLC5A5	-0.99	-1.42	-1.02	-0.53
STIP1	3.03 (active)	2.85	3.14	3.11
GPANK1	0.23	0.31	0.45	-0.07
MED25	-0.87	-0.96	-0.83	-0.82
SLC25A20	-0.6	-0.61	-0.53	-0.65
RCN2	0.26	-0.02	0.46	0.33
ARID5B	-0.11	-0.06	-0.19	-0.09
AVPR2	-0.89	-0.62	-1.22	-0.83
DCN	0.18	0.36	0.1	0.08
LOC388577 (retired record)	0.68	0.85	0.81	0.37
SPO11	0.17	0.34	0.06	0.12
BRSK2	0.17	0.03	-0.13	0.59
ZBTB17	0.1	0.14	0.2	-0.03
TIGAR	0.8	0.74	1.08	0.57
PRR16	2.43 (active)	3.19	2.02	2.09
LOC390342 (retired record)	0.73	0.7	0.38	1.11
ACVR1	-0.31	-0.46	-0.58	0.1
ZBP1	0.54	0.26	0.54	0.84
LILRA5	0.51	0.62	0.92	-0.03
SPMAP1	-0.38	-0.27	-0.31	-0.54
RUNDC1	-0.29	-0.48	-0.13	-0.26
KRT9	-0.28	-0.59	0.14	-0.39
CRBN	0.1	-0.51	0.44	0.38
IFI16	1.39	1.15	1.32	1.7
SERPINB7	-0.69	-0.48	-0.95	-0.65
RACGAP1	0.88	0.96	1.11	0.56
GPR150	-0.15	0.04	-0.38	-0.12
STXBP1	0.05	0.3	0.01	-0.15
LMAN1	1.87	2.09	2.12	1.39
VCL	-0.57	-0.7	-0.64	-0.36
FGF21	0.54	0.74	0.53	0.35

Records above whose target name starts with A or a:
gene knocked down	mean z-score	z-score, replicate A	z-score, replicate B	z-score, replicate C
ACOX2	-1.08	-1.11	-1.05	-1.08
ANKS6	1.08	0.93	1.46	0.84
APOBEC3A	-0.21	0.05	-0.39	-0.27
ARHGAP44	0.72	0.82	0.93	0.41
ARID5B	-0.11	-0.06	-0.19	-0.09
AVPR2	-0.89	-0.62	-1.22	-0.83
ACVR1	-0.31	-0.46	-0.58	0.1
